A mixed list of measured activities; the numbers were collected in NIAID ChemDB.

Shared fields: tests in culture; agent: Mycobacterium kansasii

Lines come from different laboratories, so protocols vary. Blank or dashed fields: not listed here. A number after MIC or MFC names an inhibition level or a share of isolates. Zones are inhibition diameters on agar.

smiles	strain	method	setting	read-out	tested at	value
CCCc1cnc(C(=O)/C=C/c2ccc(Br)cc2)cn1	Hauduroy	absorbance		MIC		12.5 µg/mL
CCCN(CCC)C(=O)c1cc(C)cc(C(=O)N[C@H]([C@H](O)CNCc2cccc(I)c2)C(F)(F)c2ccccc2)c1	ATCC 35775	agar diffusion		zone	100 µg/disc	11 mm
O=C(Nc1ccc(Cl)cc1)c1cc(Cl)ccc1OP(=O)(Oc1ccccc1)c1ccccc1	My 6509/96		14 d	MIC		8 µM
CC(C)(C)c1cnc(C(=O)/C=C/c2ccc(Br)cc2)cn1	Hauduroy	absorbance		MIC		12.5 µg/mL
CCCNC(=O)Nc1ccc(S(=O)(=O)Nc2cc(C)on2)cc1	235/80	broth dilution / absorbance	7 d	MIC100		500 µM
O=C(Nc1ccc(Cl)c(Cl)c1)c1cc(Cl)ccc1OP(=O)(c1ccccc1)c1ccccc1	My 6509/96		21 d	MIC		8 µM
CCCN(CCC)C(=O)c1cc(C)cc(C(=O)N[C@@H](Cc2ccccc2)[C@H](O)CNCc2cccc(I)c2)c1	262	agar diffusion		zone	100 µg/disc	18 mm
Cc1cc(NS(=O)(=O)c2ccc(NC(=O)Nc3ccc(S(=O)(=O)Nc4cc(C)on4)cc3)cc2)no1	6509/96 clinical isolate	broth dilution / absorbance	7 d	MIC100		2 µM
CCCCc1cnc(C(=O)/C=C/c2ccc(Cl)cc2)cn1	Hauduroy	absorbance		MIC		12.5 µg/mL
O=C(Nc1ccc(Cl)cc1)c1cc(Cl)ccc1OP(=O)(c1ccccc1)c1ccccc1	My 6509/96		14 d	MIC		8 µM
CC[C@@H](CO)NCCN[C@@H](CC)CO	ATCC 35775	agar diffusion		zone	100 µg/disc	50 mm
O=C(Nc1ccccc1)c1ccccc1OP(=O)(c1ccccc1)c1ccccc1	My 6509/96		21 d	MIC		250 µM
CCCCCc1cnc(C(=O)/C=C/c2ccc(Br)cc2)cn1	Hauduroy	absorbance		MIC		>50 µg/mL
NNC(=O)c1ccncc1	104 clinical isolates			MIC50		2 µg/mL
O=C(/C=C/c1ccccc1F)c1cnccn1	Hauduroy	absorbance		MIC		12.5 µg/mL
CCCCCCCCCCNC(=O)Nc1ccc(S(=O)(=O)Nc2cc(C)on2)cc1	235/80	broth dilution / absorbance	21 d	MIC100		125 µM
O=C(Nc1ccc(Cl)c(Cl)c1)c1cc(Cl)ccc1OP(=O)(OCc1ccccc1)OCc1ccccc1	My 235/80		14 d	MIC		62.5 µM
CCCCCCNC(=O)Nc1ccc(S(=O)(=O)Nc2cc(C)on2)cc1	235/80	broth dilution / absorbance	7 d	MIC100		250 µM
O=C(Nc1ccc(Br)cc1)c1cc(Cl)ccc1OP(=O)(Oc1ccccc1)c1ccccc1	My 6509/96		21 d	MIC		8 µM
Cc1cc(NS(=O)(=O)c2ccc(NC(=O)N(C(C)C)C(C)C)cc2)no1	6509/96 clinical isolate	broth dilution / absorbance	14 d	MIC100		500 µM
O=C(N[C@H]([C@H](O)CNCc1cccc(I)c1)C(F)(F)c1ccccc1)OCc1ccccc1	T	broth dilution		MIC		128 µg/mL

For reference, 3 entries again:

smiles | strain | method | setting | read-out | tested at | value
CCCN(CCC)C(=O)c1cc(C)cc(C(=O)N[C@@H](Cc2ccccc2)[C@H](O)CNCc2cccc(I)c2)c1 | 262 | agar diffusion |  | zone | 100 µg/disc | 18 mm
Cc1cc(NS(=O)(=O)c2ccc(NC(=O)Nc3ccc(S(=O)(=O)Nc4cc(C)on4)cc3)cc2)no1 | 6509/96 clinical isolate | broth dilution / absorbance | 7 d | MIC100 |  | 2 µM
CCCCCc1cnc(C(=O)/C=C/c2ccc(Br)cc2)cn1 | Hauduroy | absorbance |  | MIC |  | >50 µg/mL